Measurements from publication PMC6722883 (FEBS Open Bio, 2019).

Assay: Degradation kinetics, influence of pH
Conditions: potassium phosphate buffer, ionic strength 0.3 M

CC[C@H](C)[C@@H]1NC(=O)[C@@H]2CCCN2C(=O)[C@H](CO)NC(=O)[C@H](CCSC)NC(=O)[C@H](C)NC(=O)[C@H](CO)NC(=O)[C@@H]2CSSC[C@H](NC(=O)CN)C(=O)N[C@@H](CSSC[C@@H](C(N)=O)NC1=O)C(=O)N[C@@H](CO)C(=O)N[C@@H](Cc1c[nH]cn1)C(=O)N1CCC[C@H]1C(=O)N[C@@H](C(C)C)C(=O)N2 [TxID, α‐Conotoxin TxID]
Reaction rate at pH 3.0, times slower than at pH 2.0: roughly 14 times
